Experimental data: US5585367A (priority 1990, dated 1996)

Test system: Supt-1 cells
Test: Toxicity against sound cells, cellular mortality by exclusion with trypan blue
Details: dilutions 1/500, 1/1500 and 1/3000

## N=C(N)N=NC(=N)N
  cellular viability of Supt-1 cells: does not decrease the cellular viability
